# PubChem BioAssay AID504761 – Drosophila RNAi Screening Center | 2011
# Aim: 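Genome-wide fly cell screen for genes dengue virus requires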 (primary screen)
# Cells: D.Mel-2 cells from Drosophila
# Knock-down reagent: long dsRNA against Drosophila genes
# Treatment: infection with dengue virus type 2; dose and infection time not stated
# Measured: 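Cells stained for dengue envelope protein and imaged; percent of infected cells per well on duplicate plates, ranked by infection, with stained nuclei counted for cell number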
# Direction: infection score: higher = more virus-infected cells; cell count: higher = more cells in the well
# Hit rule: 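Very low infection ranking in both replicate wells (chance probability at most 0.065), then a retest showing infection dropped 1.5-fold or more at p below 0.05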
# Meaning of the calls: active = confirmed: knock-down lowers infection; inactive = not picked or not confirmed
# In all, the deposit lists about 22,000 reagents; this is a random part of those that have a named target and a result. In the full data, 116 (0.52%) were called active. 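Calls depend on retest data that are not deposited; infection was ranked per plate without normalising between plates; the unit of the infection score is not given.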 The raw values are shown without normalisation. The numbers tell different reagents against one gene apart. Names joined by + are all predicted targets of the reagent. The record does not give: the amount of reagent, the time to read-out.
gene,reagent,"infection score, replicate 1","infection score, replicate 2","cell count, replicate 1","cell count, replicate 2",call
CG12164,1,4.5,11.7,6646,6242,inactive
CG12164,2,7.13,9.18,6539,7027,inactive
CG12164,3,9.8,18.4,6605,6094,inactive
CG42634 + CG42635,1,3.07,3.21,6449,6696,inactive
CG31373,1,5.27,8.38,5925,6101,inactive
spz4 (spatzle 4),1,15.1,9.12,5685,5864,inactive
spz4 (spatzle 4),2,2.56,12.9,7177,5413,inactive
Atg7 (Autophagy-related 7),1,2.64,2.09,5603,5455,inactive
Atg7 (Autophagy-related 7),2,3.23,2.51,5953,6412,inactive
CG9896,1,3.03,0.67,5913,5510,inactive
CG9896,2,1.74,2.68,6679,6934,active
CG9550,1,3.04,2.13,6082,6584,inactive
CG9550,2,13.6,3.76,5611,5660,inactive
CG2310,1,6.04,3.71,6419,5494,inactive
CG32537,1,22.6,8.22,6588,6556,inactive
CG32537,2,11.9,7.69,6337,6255,inactive
MtnA (Metallothionein A),1,32.7,,4530,324,inactive
CG33127,1,6.87,3.51,6287,6118,inactive
P5CDh1 (delta-1-Pyrroline-5-carboxylate dehydrogenase 1),1,9.22,12.3,5833,6700,inactive
CG30269,1,9.55,13.9,6814,6572,inactive
sgl (sugarless),1,2.61,4.9,6049,6554,inactive
sgl (sugarless),2,1.02,,295,285,inactive
Art3 (Arginine methyltransferase 3),1,13.8,10.1,6378,6363,inactive

6 successive entries already listed, quoted:
gene,reagent,"infection score, replicate 1","infection score, replicate 2","cell count, replicate 1","cell count, replicate 2",call
CG9550,2,13.6,3.76,5611,5660,inactive
CG2310,1,6.04,3.71,6419,5494,inactive
CG32537,1,22.6,8.22,6588,6556,inactive
CG32537,2,11.9,7.69,6337,6255,inactive
MtnA (Metallothionein A),1,32.7,,4530,324,inactive
CG33127,1,6.87,3.51,6287,6118,inactive

The listing continues:
gene,reagent,"infection score, replicate 1","infection score, replicate 2","cell count, replicate 1","cell count, replicate 2",call
eys (eyes shut),1,8.73,2,6395,6487,inactive
eys (eyes shut),2,6.17,8.76,6081,5572,inactive
eys (eyes shut),3,3.18,1.88,6194,6444,inactive
CG14511,1,4.38,1.77,5885,6893,inactive
CG14511,2,4.54,2.73,6031,5933,inactive
ssp3 (short spindle 3),1,20,11.6,4614,7435,inactive
ssp3 (short spindle 3),2,1.71,3.89,6325,1415,inactive
ssp3 (short spindle 3),3,27.8,24.1,6133,5829,inactive
CG34367,1,11.4,8.47,6460,6148,inactive
CG34367,2,2.45,2.94,6404,6772,inactive
CG34367,3,9.75,21.1,5978,5587,inactive
CG15880,1,2.53,2.86,5800,6219,inactive
dome (domeless),1,6.92,1.7,6329,5601,inactive
betaggt-I (beta subunit of type I geranylgeranyl transferase),1,9.07,0.8,5413,498,inactive
Cdc5 (Cell division cycle 5),1,24,19.3,3311,3607,inactive
IFT20 + CG10395,1,8.71,1.06,6438,6627,inactive
IFT20 + CG10395,2,4.37,11.2,6454,6626,inactive
CG17036,1,10.6,9.35,6052,5884,inactive
CG17036,2,9.41,0.49,6299,407,inactive
CG13989,1,3.11,1.72,6231,6564,inactive
salr (spalt-related),1,5.41,7.64,6302,5945,inactive
CG6126,1,9.52,10.5,6421,6593,inactive
unc-4,1,4.16,3.78,5942,6171,inactive
unc-4,2,1.71,8.13,6554,3838,inactive
unc-4,3,4.98,1.62,6062,6353,inactive
CG3198,1,4.02,4.01,6286,6661,inactive
CG3198,2,3.28,3.42,6129,5610,inactive
CG5386,1,4.37,2.61,6549,5986,inactive
CG7497,1,11.8,16.2,6077,6328,inactive
CG7497,2,4.01,10.1,6886,5604,inactive
"GalT1 (beta1,3-galactosyltransferase 1)",1,2.63,4.01,6961,6705,inactive
CG14778,1,6.32,5.13,6776,5730,inactive
raskol,1,0.23,0.36,6093,6585,inactive
raskol,2,2.09,2.34,6363,6420,inactive
raskol,3,4.12,17.7,6498,4784,inactive
raskol,4,2.8,1.8,6397,6551,inactive
